The record followed here is ChEMBL document CHEMBL1132160, “Structure-antiviral activity relationship in the series of pyrimidine and purine N-[2-(2-phosphonomethoxy)ethyl] nucleotide analogues. 1. Derivatives substituted at the carbon atoms of the base” (J Med Chem, 1999).

In this experiment the test system is HEL. The experiment is described as follows: Compound was evaluated for inhibitory activity against varicella zoster virus thymidine kinase (VZV TK-) 07/1 strain; NA=not active. The format is functional, cell-based, Homo sapiens. In outline: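 HEL cell cultures, grown to confluence, received 100 CCID50 of virus. After 1 h adsorption, the inoculum was removed and the cultures were incubated with serial concentrations of compound (400, 200, 100, ... μg/mL).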

For the compound `Nc1ncnc2c1ncn2CCOCP(=O)(O)O` [ADEFOVIR], the EC50 result was “Not Active”.
